Measured values taken from patent US6001867A, “1-aryl-dibenzothiophenes” (American Home Products Corporation, priority 1999, dated 1999).

System: rat hepatic microsomal PTPases
Experiment: Inhibition of tri-phosphorylated insulin receptor dodecaphosphopeptide dephosphorylation by rat hepatic PTPases (malachite green)
Settings: test compound 50 μM; rat hepatic microsomal fraction; substrate 50 uM, 37 deg.C

## O=[As]c1ccccc1 (stereo not shown)
  % Change from Control (PTPase activity): -57.06%
